Pooled drug test results. Numbers come from NIAID ChemDB, via PubChem.

All rows: whole-cell or culture tests; organism: HIV-1; cell line: MT-2; read-out: EC50

ECn: concentration that inhibits the pathogen or its effect by n%. Neighbouring rows are from separate reports. An empty or dashed field is not shown.

structure	strain	mutations	read by	value
O=c1[nH]cnc2c1ncn2[C@@H]1O[C@H](CO)C[C@@H]1F	HXB2D	-	p24	11 µM
Nc1nc2c(ncn2[C@H]2CO[C@@H](CO)O2)c(=O)[nH]1	Site-directed mutant	RT-K65R	cytopathic effect / XTT	12.3 µM
Nc1ncnc2c1ncn2[C@@H]1O[C@H](CO)C[C@@H]1F	Q151M(RT-Q151M)	RT-Q151M	p24	5 µM
Nc1nc(=O)n([C@@H]2CS[C@H](CO)O2)cc1F	NL4-3 Recombinant	-	cytopathic effect / XTT	0.4 µM
Cc1cn([C@H]2C=C[C@@H](CO)O2)c(=O)[nH]c1=O	-	RT-T69G	p24	0.266 µM
Nc1ccn([C@H]2CC[C@@H](CO)O2)c(=O)n1	HXB2D	-	p24	0.3 µM
CCOP(=O)(COc1ccc(C[C@H](NC(=O)O[C@H]2CO[C@H]3OCC[C@H]32)[C@H](O)CN(CC(C)C)S(=O)(=O)c2ccc(OC)cc2)cc1)OCC	IIIB	K112M K113E V128I M200I H219P I401T R409K D437N L441P R41K	p24 / ELISA	0.01141 µM
Nc1nc(NC2CC2)c2ncn([C@H]3C=C[C@@H](CO)C3)c2n1	Site-directed mutant	RT-K65R Y115F M184V	cytopathic effect / XTT	>3.44 µM
Cc1cn([C@H]2C=C[C@@H](CO)O2)c(=O)[nH]c1=O	Clinical isolate	A62V/V75I/F77L/F116L/Q151M/M184V	recombinant virus assay	3.504 µM
CC(C)CN(C[C@@H](O)[C@H](Cc1ccccc1)NC(=O)O[C@H]1CCOC1)S(=O)(=O)c1ccc(N)cc1	IIIB	I401T R409K D437N	p24 / ELISA	0.0473 µM
Nc1ncnc2c1ncn2CCOCP(=O)(O)O	NL4-3 Recombinant	-	cytopathic effect / XTT	23 µM
Nc1nc(=O)n([C@@H]2CS[C@H](CO)O2)cc1F	Clinical isolate	M41L/A98G/K103N/M184V/L210W/T215Y	recombinant virus assay	>13.3 µM
Cc1cn([C@H]2C[C@H](N=[N+]=[N-])[C@@H](CO)O2)c(=O)[nH]c1=O	Site-directed mutant	RT-K65R	cytopathic effect / XTT	0.182 µM
O=c1[nH]cnc2c1ncn2[C@H]1CC[C@@H](CO)O1	RT F77L/F116Y/Q151M	RT-F77L F116Y Q151M	p24	11 µM
CC(C)OC(=O)OCOP(=O)(CO[C@H](C)Cn1cnc2c(N)ncnc21)OCOC(=O)OC(C)C	JF4A ddC-resistant (RT T69D)	RT-T69D	p24	0.004 µM
CCN(c1nc(F)ccc1NC(C)(C)C)C1CCN(C(=O)c2cc3cc(NC(=O)N4CCN(C)CC4)ccc3[nH]2)CC1	IIIB	D437N	p24 / ELISA	0.0261 µM
Nc1ccn([C@H]2CC[C@@H](CO)O2)c(=O)n1	RT-T69G K103N	RT-T69G K103N)	p24	0.163 µM
Cc1cn([C@H]2C[C@H](N=[N+]=[N-])[C@@H](CO)O2)c(=O)[nH]c1=O	LAI	-	cytopathic effect / XTT	0.5 µM